The values below come from PubChem BioAssay AID651820 (National Center for Advancing Translational Sciences (NCATS), 2012).

The list shows a part of the results, in another mix than the full data. Results filed as inconclusive are left out. A call without a number means that no potency is given here. Activity calls are given as the source filed them. The call rests on the fitted dose curve; in most records, active means well fitted inhibition curve with a large enough effect; inconclusive means small, poorly fitted or top-dose-only effect, or another doubt; inactive means no such curve, though single readings can be large or run the other way.

The assay is described as follows: qHTS Assay for Inhibitors of Hepatitis C Virus (HCV). The note with it: Huh7.5.1 HCVcc-Cre (HCVcc is cell-culture hepatitis C virus) infection, luciferase reporter, 44 h; series mostly up to 41.8 µM. An excerpt:
Hepatitis C virus (HCV) infects about 200 million people in the world. Many infected people progress to chronic liver disease including cirrhosis with a risk of developing liver cancer. To date, there is no effective vaccine for hepatitis C. Current therapy based on interferon is only effective in about half of the patients and is associated with significant adverse effects. The fraction of people with HCV who can complete a successful treatment is estimated to be no more than 10 percent. Recent development of direct-acting antivirals against HCV, such as protease and polymerase inhibitors, is promising but still requires combination with peginterferon and ribavirin for maximal efficacy. In addition, these agents are associated with high rate of resistance and many have significant side effects. Due to the lack of a culture system for infectious HCV, the search for new HCV drugs has been greatly hampered. […] High-throughput screening (HTS) with an infectious HCV system would cover the complete spectrum of potentially druggable targets in all stages of HCV lifecycle, and would have more biological relevance than other cell-based assays. Moreover, targeting several key processes in the viral life cycle may not only increase antiviral efficacy; more importantly, it may also reduce the capacity of the virus to develop resistance to the compound. The goal of this project is to identify novel HCV inhibitors as new therapies for hepatitis C, using a highly sensitive and specific assay platform which is based on a HCV infectious cell culture system established in the laboratory and adapted for high-throughput HCV drug screen. NIH Chemical Genomics Center [NCGC] NIH Molecular Libraries Probe Centers Network [MLPCN] MLPCN Grant: MH095511 Assay Submitter (PI): Jake Liang, NIDDK
The assay will start with plating 1,000 cells/well in 3 µL volume and culture for 4 h. Then 23 nL of compounds from the library collection will be added to each well, followed by adding 2.5 µL of HCVcc-Cre virus (~ 0.5 moi) and further cultured for 44 h before the luciferase assay. A volume of 4.5 µL luciferase substrates will be added to each well and the plates will be incubated at room temperature for 15 min. and then read for 15 sec. for the luciferase activity
Regarding `CN1CCCCC1COC(=O)C1(O)c2ccccc2CCc2ccccc21` (stereo unspecified), the Potency entry was “inactive”.
Consider `O=[N+]([O-])c1cc([N+](=O)[O-])c(-c2cnn(-c3ccccc3)c2)c([N+](=O)[O-])c1`, for which the Potency was active: 11.2 µM.
Consider `CCN(CC)CCCOC(=O)C(O)(c1ccccc1)c1ccccc1`, for which the Potency result was “inactive”.
Then `Cc1cccc(C)c1OP(C)(=O)Nc1ccc(SC(F)(F)F)cc1` (stereo unspecified), with active: 12.6 µM; and `CCN(CC)CC(O)COC(=O)C(O)(c1ccccc1)C1CCCCC1` (stereo unspecified), with “inactive”.
As for `O=C(OCCCN1CCCC1)C(O)(c1ccccc1)C1CCCCC1` (stereo unspecified), the Potency result was “inactive”.
Regarding `CN(C)CCOC(=O)C(O)(c1ccccc1)C1CCCC1` (stereo unspecified), the Potency entry is “inactive”.
With `CCN(CC)CCCOC(=O)C(O)(c1ccccc1)C1CCCCC1` (stereo unspecified), the Potency result is “inactive”.
With `O=C(OCCN1CCN(CCOCc2ccccc2)CC1)C(O)(c1ccccc1)c1ccccc1`, the Potency result was “inactive”.
In the case of `CN(C)CCOC(=O)C(O)(c1ccccc1)C1CCCCC1` (stereo unspecified) it was “inactive”.
For the compound `O=[N+]([O-])c1ccc(OP2(=O)COCCO2)cc1` (stereo unspecified), the Potency entry is “inactive”.
